Compound potency records, mixed from different reports. Data source: NIAID ChemDB in PubChem.

Common to all: growth or infection tests; organism: Human cytomegalovirus; read by: plaque count; endpoint: EC50

Lines come from different laboratories, so protocols vary.

smiles,cells,strain,value
Nc1nc2c(ncn2COC2COP(=O)(O)OC2)c(=O)[nH]1,MRC-5,AD169,5.9 µM
CC#Cc1cn([C@@H]2O[C@H](COP(=O)(OCC)Oc3ccccc3)[C@@H](O)[C@@H]2O)c(=O)[nH]c1=O,MRC-5,AD169,>100 µM
Nc1ncnc2c1ncn2C[C@@H](CO)OCP(=O)(O)O,WI-38,,0.3 µM
Nc1nc2c(ncn2COC(CO)CO)c(=O)[nH]1,HFF,,7.4 µM
CC(C)NS(=O)(=O)c1ccccc1C(=O)N/N=C/c1ccc(Br)cc1,HEL,AD169,>100 µM
Nc1ccn([C@@]23C[C@H](O)[C@@H](CO)[C@@H]2C3)c(=O)n1,HFF,,88.9 µg/mL
O=Cc1c(Cl)n([C@@H]2O[C@H](CO)[C@@H](O)[C@H]2O)c2cc(Cl)c(Cl)cc12,HFF,,0.23 µM
CCCCCCCCCCCCCCCCCCOC[C@H](COP(=O)(O)CO[C@H](CO)Cn1ccc(N)nc1=O)OCc1ccccc1,HFF,AD169,0.003 µM
CC#Cc1cn([C@@H]2O[C@H](COP(=O)(Oc3ccccc3)Oc3ccc([N+](=O)[O-])cc3)[C@@H](O)[C@@H]2O)c(=O)[nH]c1=O,MRC-5,AD169,>100 µM
Nc1nc(=S)n([C@@H]2O[C@H](CO)[C@@H](O)[C@@H]2O)cc1Cl,MRC-5,AD169,>361 µM
OC[C@H]1O[C@@H](n2c(Cl)nc3cc(Cl)c(Cl)cc32)[C@H](O)[C@@H]1O,HFF,TOWNE,2.9 µM
CN(Cc1ccc(F)cc1)C(=O)N1C(=O)C[C@@H]1CSc1ncccn1,,,8 µM
CCCc1cn([C@H]2C[C@H](O)[C@@H](CO)O2)c(=S)[nH]c1=O,MRC-5,T-137,>277.6 µM
CN(Cc1ccc([N+](=O)[O-])cc1)C(=O)N1C(=O)C[C@@H]1CSc1nnnn1C,,,0.5 µM
CC(C)NS(=O)(=O)c1ccccc1C(=O)N/N=C/c1ccccc1,HEL,AD169,>100 µM
O=C(NCCc1ccccc1)C1=Cc2ccncc2CC1,MRC-5,P8,18 µM
CC#Cc1cn([C@@H]2O[C@H](COP(=O)(N[C@@H](C)C(=O)OC)Oc3ccccc3)[C@@H](O)[C@@H]2O)c(=O)[nH]c1=O,MRC-5,AD169,>100 µM
Nc1nc(=S)n([C@@H]2O[C@H](CO)[C@@H](O)[C@@H]2O)cc1I,MRC-5,AD169,0.78 µM
CCCCCCCCCCCCCCCCOCCCOP1(=O)CO[C@@H](Cn2ccc(N)nc2=O)CO1,HFF,AD169,0.0427 µM
COC(c1cn([C@H]2C[C@H](O)[C@@H](CO)O2)c(=O)[nH]c1=O)C(Cl)Cl,HFF,AD169,>282 µM
O=C(O)/C=C/c1cn([C@@H]2O[C@H](CO)[C@@H](O)[C@@H]2O)c(=S)[nH]c1=O,MRC-5,93-1R,>213 µM
CCCCCCCCCCCCCCCCCCOCCCOP1(=O)CO[C@@H](Cn2ccc(N)nc2=O)CO1,HFF,AD169,0.006 µM
CCCC(=O)OCC(COC(=O)CCC)OCn1cnc2c(=O)[nH]c(N)nc21,HFF,,1.3 µg/mL
CC(O)c1cn([C@@H]2O[C@H](CO)[C@@H](O)[C@@H]2O)c(=S)nc1N,MRC-5,93-1R,111.8 µM
O=C(NCc1ccc(Cl)cc1)c1c[nH]c2c(F)cccc2c1=O,,AD169,8.6 µM
CCCCCCCCCCCCCCOCCCOP(=O)(O)CO[C@H](CO)Cn1ccc(N)nc1=O,HFF,AD169,0.002 µM
Cc1nc(-c2ncn([C@@H]3O[C@H](CO)[C@@H](O)[C@H]3O)c2C(N)=O)no1,HFF,,>100 µM
CC(O)c1cn([C@@H]2O[C@H](CO)[C@@H](O)[C@@H]2O)c(=S)[nH]c1=O,MRC-5,AD169,>213 µM
CN(C)c1c(C#N)c2cc(Cl)c(Cl)cc2n1[C@@H]1O[C@H](CO)[C@@H](O)[C@H]1O,HFF,,17 µM
COc1cc(OC)c(NC(=S)Nc2ccc(NC(=O)c3ccco3)cc2)cc1Cl,,50 isolates,0.04 µM
Nc1nc2c(ncn2COC(COP(=O)(O)O)COP(=O)(O)O)c(=O)[nH]1,MRC-5,AD169,8 µM
C/C(=N/Nc1nc(-c2ccc(Cl)cc2)cs1)c1ccc(NC(=O)CN2C(=O)c3ccccc3S2(=O)=O)cc1,HEL,AD169,20 µM
Nc1nc(=S)n([C@H]2C[C@H](O)[C@@H](CO)O2)cc1Cl,MRC-5,AD169,>312 µM
CC#Cc1cn([C@@H]2O[C@H](COP(=O)(O)OCCCCCCCCCCCCCCCC)[C@@H](O)[C@@H]2O)c(=O)[nH]c1=O,MRC-5,AD169,100 µM
COC(c1cn([C@H]2C[C@H](O)[C@@H](CO)O2)c(=O)[nH]c1=O)C(Br)Br,HFF,AD169,>225 µM
Cc1ccc(C)c(NC(=O)CN2C(=O)c3ccccc3S2(=O)=O)c1,HEL,DAVIS,>100 µM
CCCCCCCC/C=C\CCCCCCCCOCCOP(=O)(O)CO[C@H](CO)Cn1ccc(N)nc1=O,HFF,AD169,0.0012 µM
COc1c(C=O)c2cc(Cl)c(Cl)cc2n1[C@@H]1O[C@H](CO)[C@@H](O)[C@H]1O,HFF,,4 µM
O=c1[nH]c(=O)n([C@H]2C[C@H](O)[C@@H](CO)O2)cc1C(O)C(Br)Br,HFF,AD169,>232 µM
CC/C=C\Cn1c(=O)sc2c(=O)[nH]c(N)nc21,,48041 (DHPG-R),0.16 µM
CCCCCCCC/C=C\CCCCCCCOCCCOP(=O)(O)CO[C@H](CO)Cn1ccc(N)nc1=O,HFF,AD169,0.0015 µM
C=Cc1cn([C@@H]2O[C@H](CO)[C@@H](O)[C@@H]2O)c(=S)[nH]c1=O,MRC-5,93-1R,>213 µM
CCSCc1c(Cl)nc2ccc(Cl)cn12,HFF,TOWNE,22 µM
C=CCOc1cc(O)c2c(=O)c3cc(OC)ccc3[nH]c2c1,HEL,,<2.5 µM
O=C1NCc2ccccc2OCC/C=C/c2cncc3ccc1nc23,MRC-5,C8704 (ganciclovir-resistant UL97 mutant),0.00024 µg/mL
Nc1nc(=S)n([C@@H]2O[C@H](CO)[C@@H](O)[C@@H]2O)cc1/C=C/Br,MRC-5,AD169,>213 µM
Nc1nc(=S)n([C@@H]2O[C@H](CO)[C@@H](O)[C@@H]2O)cc1F,MRC-5,AD169,>361 µM
Nc1nc2c(ncn2COC(CO)CO)c(=O)[nH]1,WI-38,TOWNE,1 µM
O=c1[nH]c(=O)n([C@H]2C[C@H](O)[C@@H](CO)O2)cc1C(O)C(Br)I,HFF,AD169,>210 µM
CN(Cc1ccc(C(F)(F)F)cc1)C(=O)N1C(=O)C[C@@H]1CSc1nnnn1C,,,0.8 µM
Cc1cn([C@@H]2O[C@H](CO)[C@H]2CO)c(=O)[nH]c1=O,HFF,DAVIS,>100 µg/mL
CC#Cc1cn([C@@H]2O[C@H](COP(=O)(O)Oc3ccc(OC)cc3)[C@@H](O)[C@@H]2O)c(=O)[nH]c1=O,MRC-5,AD169,>100 µM
CCCC(=O)OCC(CO)OCn1cnc2c(=O)[nH]c(N)nc21,HFF,,0.53 µg/mL
Nc1nc2c(ncn2COC(CO)CO)c(=O)[nH]1,HFF,TOWNE,7.4 µM
CC#Cc1cn([C@@H]2O[C@H](COP(=O)(NCCCCCCCCCCCC)Oc3ccccc3)[C@@H](O)[C@@H]2O)c(=O)[nH]c1=O,MRC-5,AD169,>10 µM
CCCCNc1c(C=O)c2cc(Cl)c(Cl)cc2n1[C@@H]1O[C@H](CO)[C@@H](O)[C@H]1O,HFF,,7 µM
OCCSCc1c(Cl)nc2cc(Cl)c(Cl)cn12,HFF,TOWNE,>100 µM
CC(C)Oc1ccccc1CNC(=O)c1ccc2cnccc2n1,MRC-5,P8,0.3 µM
CCc1cn([C@H]2C[C@H](O)[C@@H](CO)O2)c(=S)nc1N,MRC-5,T-137,>277.4 µM
Nc1nc(=S)n([C@H]2C[C@H](O)[C@@H](CO)O2)cc1Br,MRC-5,AD169,>272 µM
CCCCCCCCCCCCCCCCOCCCOP(=O)(O)CO[C@H](CO)Cn1ccc(N)nc1=O,HFF,AD169,0.0009 µM
O=c1[nH]c(=O)n([C@H]2C[C@H](O)[C@@H](CO)O2)cc1C(O)C(Cl)Cl,HFF,AD169,>294 µM

A second listing of 6 rows from above:

| smiles | cells | strain | value |
|---|---|---|---|
| O=C(NCc1ccc(Cl)cc1)c1c[nH]c2c(F)cccc2c1=O |  | AD169 | 8.6 µM |
| CN(Cc1ccc(F)cc1)C(=O)N1C(=O)C[C@@H]1CSc1ncccn1 |  |  | 8 µM |
| C=CCOc1cc(O)c2c(=O)c3cc(OC)ccc3[nH]c2c1 | HEL |  | <2.5 µM |
| CCCC(=O)OCC(COC(=O)CCC)OCn1cnc2c(=O)[nH]c(N)nc21 | HFF |  | 1.3 µg/mL |
| C/C(=N/Nc1nc(-c2ccc(Cl)cc2)cs1)c1ccc(NC(=O)CN2C(=O)c3ccccc3S2(=O)=O)cc1 | HEL | AD169 | 20 µM |
| COC(c1cn([C@H]2C[C@H](O)[C@@H](CO)O2)c(=O)[nH]c1=O)C(Cl)Cl | HFF | AD169 | >282 µM |

Blank or dashed fields: not listed here. ECn: concentration that inhibits the pathogen or its effect by n%.